Results deposited as PubChem BioAssay AID1259414 (Drosophila RNAi Screening Center, 2018)
In all, the deposit lists about 24,000 reagents; below is a random part of those with a known target gene and a result. Of all reagents, about 1,210 (5%) got an active call. 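Inactive calls also include excluded dsRNAs with several or no targets, genes unexpressed in JW18, and well A1, regardless of score.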 Reagents against one gene are numbered here. A plus sign joins genes that one reagent is predicted to hit.

Test: 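Host factors increasing or decreasing Wolbachia levels in cultured fly cells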 (primary screen)
System: Drosophila JW18 cells infected with Wolbachia
Reagent: long dsRNA against Drosophila genes, 0.25 µg dsRNA per well of a 384-well plate
Duration: 5 days
Challenge: cells persistently infected with Wolbachia before knock-down; no added drug
Measurement: 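Automated imaging of bacterial rRNA staining divided by host cell count, reported as plate-normalised robust z-score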
Scale: Wolbachia per cell robust z: higher = more Wolbachia per host cell than the plate typical
Rule for the call: 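Hit when robust z is 1.5 or more, or -1.5 or less, in at least two of three replicates; excludes dsRNAs with several or no targets, genes not expressed in JW18 and well A1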

Sec10 (Secretory 10) #1 | Wolbachia per cell robust z, rep 1 = 0.965; Wolbachia per cell robust z, rep 2 = 0.227; Wolbachia per cell robust z, rep 3 = 7.18; outcome = inactive
Sec10 (Secretory 10) #2 | Wolbachia per cell robust z, rep 1 = 0.591; Wolbachia per cell robust z, rep 2 = 1.55; Wolbachia per cell robust z, rep 3 = 0.916; outcome = inactive
CG31041 | Wolbachia per cell robust z, rep 1 = 0.998; Wolbachia per cell robust z, rep 2 = -1.03; Wolbachia per cell robust z, rep 3 = 0.0301; outcome = inactive
CG31542 + CG34277 | Wolbachia per cell robust z, rep 1 = -1.64; Wolbachia per cell robust z, rep 2 = -0.124; Wolbachia per cell robust z, rep 3 = -0.0544; outcome = inactive
CG6398 | Wolbachia per cell robust z, rep 1 = 0.729; Wolbachia per cell robust z, rep 2 = 0.127; Wolbachia per cell robust z, rep 3 = -0.194; outcome = inactive
CG6753 #1 | Wolbachia per cell robust z, rep 1 = -0.184; Wolbachia per cell robust z, rep 2 = -2.68; Wolbachia per cell robust z, rep 3 = -0.455; outcome = inactive
CG6753 #2 | Wolbachia per cell robust z, rep 1 = 0.244; Wolbachia per cell robust z, rep 2 = 0.788; Wolbachia per cell robust z, rep 3 = 0.304; outcome = inactive
CG1105 #1 | Wolbachia per cell robust z, rep 1 = -4.01; Wolbachia per cell robust z, rep 2 = 0.198; Wolbachia per cell robust z, rep 3 = -0.0948; outcome = inactive
CG1105 #2 | Wolbachia per cell robust z, rep 1 = -2.36; Wolbachia per cell robust z, rep 2 = -2.04; Wolbachia per cell robust z, rep 3 = -1.99; outcome = active
CG42685 #1 | Wolbachia per cell robust z, rep 1 = 1.78; Wolbachia per cell robust z, rep 2 = -0.231; Wolbachia per cell robust z, rep 3 = 1.74; outcome = inactive
CG42685 #2 | Wolbachia per cell robust z, rep 1 = -0.729; Wolbachia per cell robust z, rep 2 = -5.43; Wolbachia per cell robust z, rep 3 = -2.84; outcome = inactive
CG14744 | Wolbachia per cell robust z, rep 1 = 0.197; Wolbachia per cell robust z, rep 2 = 1.05; Wolbachia per cell robust z, rep 3 = 0.408; outcome = inactive
CG18294 | Wolbachia per cell robust z, rep 1 = -2.37; Wolbachia per cell robust z, rep 2 = -0.815; Wolbachia per cell robust z, rep 3 = 0.924; outcome = inactive
Sdhaf3 (Succinate dehydrogenase assembly factor 3) | Wolbachia per cell robust z, rep 1 = 0.531; Wolbachia per cell robust z, rep 2 = 0.386; Wolbachia per cell robust z, rep 3 = -0.186; outcome = inactive
GstE10 (Glutathione S transferase E10) #1 | Wolbachia per cell robust z, rep 1 = -0.349; Wolbachia per cell robust z, rep 2 = 0.135; Wolbachia per cell robust z, rep 3 = 0.674; outcome = inactive
GstE10 (Glutathione S transferase E10) #2 | Wolbachia per cell robust z, rep 1 = 0.255; Wolbachia per cell robust z, rep 2 = 0.12; Wolbachia per cell robust z, rep 3 = -0.744; outcome = inactive
Poxn (Pox neuro) #1 | Wolbachia per cell robust z, rep 1 = 0.0514; Wolbachia per cell robust z, rep 2 = -0.00176; Wolbachia per cell robust z, rep 3 = -0.00361; outcome = inactive
Poxn (Pox neuro) #2 | Wolbachia per cell robust z, rep 1 = -3.44; Wolbachia per cell robust z, rep 2 = -3.67; Wolbachia per cell robust z, rep 3 = 0.469; outcome = inactive
Poxn (Pox neuro) #3 | Wolbachia per cell robust z, rep 1 = -0.584; Wolbachia per cell robust z, rep 2 = -1.06; Wolbachia per cell robust z, rep 3 = 0.227; outcome = inactive
Mst27D (Male specific transcript 27D) | Wolbachia per cell robust z, rep 1 = -1.9; Wolbachia per cell robust z, rep 2 = -2.16; Wolbachia per cell robust z, rep 3 = -1.86; outcome = active
CG14259 | Wolbachia per cell robust z, rep 1 = -0.672; Wolbachia per cell robust z, rep 2 = 0.692; Wolbachia per cell robust z, rep 3 = 0.516; outcome = inactive
CR30409 (pseudo) | Wolbachia per cell robust z, rep 1 = 0.366; Wolbachia per cell robust z, rep 2 = 0.0842; Wolbachia per cell robust z, rep 3 = -0.875; outcome = inactive
mRpL11 (mitochondrial ribosomal protein L11) | Wolbachia per cell robust z, rep 1 = 0.605; Wolbachia per cell robust z, rep 2 = 0.161; Wolbachia per cell robust z, rep 3 = 0.283; outcome = inactive
vers (versatile) | Wolbachia per cell robust z, rep 1 = 0.922; Wolbachia per cell robust z, rep 2 = 0.0193; Wolbachia per cell robust z, rep 3 = 1.07; outcome = inactive
